Measured values from several laboratories, pooled; numbers as filed in NIAID ChemDB.

Shared fields: host cell toxicity; cells: Huh7; endpoint: CC50

CCn is the concentration with n% toxicity to the cells. Two numbers with a dash give a range or band. Blank or dashed fields: not listed here. Lines come from different laboratories, so protocols vary.

structure,method,result
C[C@@]1(O)[C@H](O)[C@@H](CO)O[C@H]1n1ccc(N)nc1=O,-,>50 µg/mL
Fc1ccc(-c2ccc3ncnc(NC4CC4)c3c2)cc1,-,>20 µM
O=C(/C=C/c1cc(O)c(O)c(O)c1)OCCc1ccccc1,MTS,212.4 µM
COc1cc(Cc2cnc(/N=C3\C(=O)N(CN4CCN(c5ccccc5)CC4)c4ccc(Br)cc43)nc2N)cc(OC)c1OC,-,>50 µg/mL
CC(C)C(=O)Nc1ccc(-c2ccc3nc(N)nc(OCCF)c3n2)cc1,-,>20 µM
COc1cc(Cc2cnc(/N=C3\C(=O)N(CN4CCN(c5c(F)cc6c(=O)c(C(=O)O)cn(C7CC7)c6c5OC)CC4C)c4ccc(F)cc43)nc2N)cc(OC)c1OC,-,<50 µg/mL
CCOc1nc(N)nc2ccc(-c3cccc(NS(=O)(=O)CC)c3)nc12,-,>20 µM
COc1cc(Cc2cnc(/N=C3\C(=O)N(CN4CCN(c5c(F)cc6c(=O)c(C(=O)O)cn(C7CC7)c6c5OC)CC4C)c4ccc(Br)cc43)nc2N)cc(OC)c1OC,-,>50 µg/mL
COc1ccc(-c2cnc3nc(N)nc(N4CCN(C(=O)c5ccncc5)CC4)c3n2)cc1OC,ATP,10–20 µM
CCOc1nc(N)nc2ccc(-c3ccc(-c4nnc(C)o4)cc3)nc12,-,>20 µM
COc1ccccc1N1CCN(CN2C(=O)/C(=N\c3ncc(Cc4cc(OC)c(OC)c(OC)c4)c(N)n3)c3cc(Br)ccc32)CC1,-,>50 µg/mL
Nc1nc(O[C@H]2CCOC2)c2nc(-c3ccc(C(=O)NCCN4CCCC4)cc3)ccc2n1,-,10–20 µM
CC1CCC(C(=O)N(c2cc(-c3ccccc3)sc2C(=O)O)C(C)C)CC1,-,77 µM
COc1cc(Cc2cnc(/N=C3\C(=O)N(CN4CCCC4)c4ccc(Br)cc43)nc2N)cc(OC)c1OC,-,>50 µg/mL
CN(C)c1ncnc2ccc(-c3ccc(F)cc3)cc12,-,>20 µM
CC(C)(C)C(=O)OCOP(=O)(CC[C@H]1O[C@@H](n2cnc3c(N)nc(N)nc32)[C@](C)(F)[C@@H]1O)OCOC(=O)C(C)(C)C,absorbance,>10 µM
COc1cc(Cc2cnc(/N=C3\C(=O)N(CN4CCN(c5cccc(C(F)(F)F)c5)CC4)c4ccc(Br)cc43)nc2N)cc(OC)c1OC,-,>50 µg/mL
C1=C[C@@H](c2ncc(-c3ccc(-c4ccc(-c5cnc([C@@H]6C=CCN6)[nH]5)cc4)cc3)[nH]2)NC1,ATP,46.8 µM
Cc1ccc(Sc2ccccc2)c(Nc2ccnc3nc(C)ccc23)c1,MTT,8.6 µM
COc1ccc(-c2cnc3nc(N)nc(N4CCN(CCC#N)CC4)c3n2)cc1OC,ATP,10–20 µM
COc1ccc(-c2cnc3nc(N)nc(N4CCOCC4)c3n2)cn1,-,>20 µM
COc1cc(Cc2cnc(/N=C3\C(=O)N(CN4CCN(c5cc6c(cc5F)c(=O)c(C(=O)O)cn6C5CC5)CC4)c4ccc(F)cc43)nc2N)cc(OC)c1OC,-,>50 µg/mL
Cc1ccc(Sc2ccccc2)c(Nc2ncnc3nc(C4CC4)ccc23)c1,MTT,9.9 µM
COc1cc(Cc2cnc(/N=C3\C(=O)N(CN4CCN(C)CC4)c4ccc(F)cc43)nc2N)cc(OC)c1OC,-,<50 µg/mL
Nc1nc(N2CCOCC2)c2nc(-c3ccccc3C(F)(F)F)cnc2n1,-,<10 µM
Nc1nc(N2CCOCC2)c2nc(-c3ccc(C(=O)NC4CC4)cc3)ccc2n1,-,<10 µM
Nc1nc(N2CCOCC2)c2nc(-c3cccnc3F)cnc2n1,-,10–20 µM
CCOc1nc(N)nc2ccc(-c3ccc(NC(=O)[C@H](C)N)c(OC)c3)nc12,-,>20 µM
CCc1ccc2c(Nc3cc(C)ccc3Sc3ccccc3)ncnc2n1,MTT,22.7 µM
Nc1nc(N2CCOCC2)c2nc(-c3cccc(Cl)c3)cnc2n1,-,>20 µM
CNC(=O)c1ccc(-c2ccc3nc(N)nc(OC(C)C)c3n2)cc1Cl,-,>20 µM
CC(=O)Nc1ccc(Sc2ccc(C)cc2Nc2ncnc3nc(C4CC4)ccc23)cc1,MTT,29.8 µM
CCCCN(CCCC)CN1C(=O)/C(=N\c2ncc(Cc3cc(OC)c(OC)c(OC)c3)c(N)n2)c2cc(Br)ccc21,-,<50 µg/mL
Nc1ncnc2c1c(-c1ccc(-c3cc(-c4ccccn4)nc(-c4ccccn4)c3)cc1)cn2[C@H]1C[C@H](O)[C@@H](CO)O1,-,0.66 µM
CC(=O)Nc1ccc(-c2ccc3nc(N)nc(N4CCCCC4)c3c2)cc1,-,10–20 µM
CC(C)(C)C(=O)OCOP(=O)(CC[C@H]1O[C@@H](n2cnc3c(=O)[nH]c(N)nc32)[C@](C)(F)[C@@H]1O)OCOC(=O)C(C)(C)C,absorbance,>10 µM
CC(C)NC(=O)c1ccc(-c2ccc3nc(N)nc(OC(C)C)c3n2)cc1,-,>20 µM
CC(=O)Nc1ccc(-c2ccc3nc(N)nc(N4CCN(C(C)=O)CC4)c3c2)cc1,-,>20 µM
CCCCCCOC(=O)/C=C/c1ccc(O)c(O)c1,MTS,37.6 µM
Nc1ncnc2c1c(-c1ccc(-c3ccc4ccc5cccnc5c4n3)cc1)cn2[C@H]1C[C@H](O)[C@@H](CO)O1,-,1 µM
CCn1cc(C(=O)O)c(=O)c2cc(F)c(N3CCN(CN4C(=O)/C(=N\c5ncc(Cc6cc(OC)c(OC)c(OC)c6)c(N)n5)c5cc(F)ccc54)CC3)cc21,-,>50 µg/mL
CC(=O)Nc1ccc(-c2ccc3nc(N)nc(N4CCOCC4)c3c2)cc1,-,10–20 µM
COc1cc(Cc2cnc(/N=C3\C(=O)N(CN4CCN(c5cc6c(cc5F)c(=O)c(C(=O)O)cn6C5CC5)CC4)c4ccc(Br)cc43)nc2N)cc(OC)c1OC,-,>50 µg/mL
NS(=O)(=O)c1ccc(CNc2nc(NCC(F)(F)F)c3nc(-c4ccc(F)c(Cl)c4)cnc3n2)cc1,ATP,10–20 µM
COc1ccc(N2CCN(CN3C(=O)/C(=N\c4ncc(Cc5cc(OC)c(OC)c(OC)c5)c(N)n4)c4cc(Br)ccc43)CC2)cc1,-,>50 µg/mL
COc1cccc(N2CCN(CN3C(=O)/C(=N\c4ncc(Cc5cc(OC)c(OC)c(OC)c5)c(N)n4)c4cc(F)ccc43)CC2)c1,-,>50 µg/mL
CCCCCOc1ccc(C(=O)N2CCN(c3nc(N)nc4ncc(-c5ccc(OC)c(OC)c5)nc34)CC2)cc1,ATP,<10 µM
CCC[C@H](NC(=O)[C@@H]1[C@H]2CCC[C@H]2CN1C(=O)[C@@H](NC(=O)[C@@H](NC(=O)c1cnccn1)C1CCCCC1)C(C)(C)C)C(=O)C(=O)NC1CC1,-,>30 µM

Repeating the first 7 entries:

C[C@@]1(O)[C@H](O)[C@@H](CO)O[C@H]1n1ccc(N)nc1=O ; result: >50 µg/mL
Fc1ccc(-c2ccc3ncnc(NC4CC4)c3c2)cc1 ; result: >20 µM
O=C(/C=C/c1cc(O)c(O)c(O)c1)OCCc1ccccc1 ; method: MTS ; result: 212.4 µM
COc1cc(Cc2cnc(/N=C3\C(=O)N(CN4CCN(c5ccccc5)CC4)c4ccc(Br)cc43)nc2N)cc(OC)c1OC ; result: >50 µg/mL
CC(C)C(=O)Nc1ccc(-c2ccc3nc(N)nc(OCCF)c3n2)cc1 ; result: >20 µM
COc1cc(Cc2cnc(/N=C3\C(=O)N(CN4CCN(c5c(F)cc6c(=O)c(C(=O)O)cn(C7CC7)c6c5OC)CC4C)c4ccc(F)cc43)nc2N)cc(OC)c1OC ; result: <50 µg/mL
CCOc1nc(N)nc2ccc(-c3cccc(NS(=O)(=O)CC)c3)nc12 ; result: >20 µM